A mixed list of measured activities; the numbers were collected in NIAID ChemDB.

All rows: growth or infection tests; organism: Yellow fever virus; measure: EC50

ECn: concentration that inhibits the pathogen or its effect by n%.

compound,strain or isolate,cells,result
Nc1ncn(C[C@H](CO)OCP(=O)(O)O)c(=O)n1,,VERO,>100 µg/mL
C[C@]1(CO)O[C@@H](n2cnc3c(=O)[nH]c(N)nc32)[C@H](O)[C@@H]1O,,HepG2.2.15,>10 µM
Nc1nc(=O)n2ccn(C3O[C@H](CO)[C@@H](O)[C@H]3O)c2n1,,,>100 µM
Nc1ccn([C@@H]2O[C@H](CO)[C@](O)(C(F)(F)F)[C@H]2O)c(=O)n1,,,≥100 µM
CC(=O)OC[C@H]1O[C@@H](n2ncc(=S)[nH]c2=S)C(OC(C)=O)C1OC(C)=O,Asibi,VERO,188 µg/mL
Cc1cn([C@@H]2O[C@H](CO)[C@](O)(C(F)(F)F)[C@H]2O)c(=O)[nH]c1=O,,,≥100 µM
CC(=O)N[C@H]1C[C@@H](n2cnc3c(N)ncnc32)[C@H](O)[C@@H]1O,,HFF,>100 µg/mL
CC(=O)OC[C@H]1O[C@@H](n2c(C(N)=S)cc(=O)[nH]c2=O)C(OC(C)=O)C1OC(C)=O,Asibi,VERO,261 µg/mL
Nc1nc(=O)n2ccn([C@@H]3C[C@@H](O)[C@H](CO)O3)c2n1,,,>100 µM
Nc1ncn(C[C@@H](CO)OCP(=O)(O)O)c(=O)n1,,VERO,>100 µg/mL
CCOP(=O)(NC(C)C(=O)OC)OC[C@H]1O[C@@H](n2ncc(=O)[nH]c2=O)C(O)C1O,Asibi,VERO,160 µg/mL
C[C@]1(CO)O[C@@H](n2ccc(N)nc2=O)[C@H](O)[C@@H]1O,,HepG2.2.15,>10 µM
CC1(C)OC2C(O1)[C@@H](COS(=O)(=O)NC(=O)OC1O[C@H](COCc3ccccc3)[C@@H](OCc3ccccc3)[C@H](OCc3ccccc3)[C@H]1OCc1ccccc1)O[C@H]2n1ncc(=O)[nH]c1=O,Asibi,VERO,62.6 µg/mL
O=[N+]([O-])c1ccc2[nH]c(O)c(N=NC(=S)Nc3ccc(F)cc3)c2c1,,VERO,<0.8 µg/mL
Nc1nc(=O)n2ccn([C@@H]3O[C@H](CO)[C@@H](O)[C@H]3O)c2n1,,,≥100 µM
CCCCNC(=S)N=Nc1c(O)[nH]c2ccc([N+](=O)[O-])cc12,,VERO,<0.8 µg/mL
Nc1cnn([C@@H]2O[C@H](CO)C(O)C2O)c(=S)n1,Asibi,VERO,209 µg/mL
C=CCNC(=S)N=Nc1c(O)[nH]c2ccc([N+](=O)[O-])cc12,,VERO,2.18 µg/mL
CC(=O)OC[C@H]1O[C@@H](n2ncc(=O)[nH]c2=S)C(OC(C)=O)C1OC(C)=O,Asibi,VERO,12.6 µg/mL
CCCCN1C(=O)C(C)S/C1=N/N=C1\C(=O)Nc2ccc([N+](=O)[O-])cc21,,VERO,>20 µg/mL
CCCN(CCC)CCSc1nnc2c(n1)[nH]c1ccccc12,17D,VERO,>50 µM

The last 2 rows once more:

CCCCN1C(=O)C(C)S/C1=N/N=C1\C(=O)Nc2ccc([N+](=O)[O-])cc21 ; cells: VERO ; result: >20 µg/mL
CCCN(CCC)CCSc1nnc2c(n1)[nH]c1ccccc12 ; strain or isolate: 17D ; cells: VERO ; result: >50 µM

Blank or dashed fields: not listed here. Neighbouring rows are from separate reports.